# Reference: PMC4591660 (Toxins, 2015)
# Amino acid sequences for entries named in this document (tags omitted).
# UniProt Q704Y3, whole entry: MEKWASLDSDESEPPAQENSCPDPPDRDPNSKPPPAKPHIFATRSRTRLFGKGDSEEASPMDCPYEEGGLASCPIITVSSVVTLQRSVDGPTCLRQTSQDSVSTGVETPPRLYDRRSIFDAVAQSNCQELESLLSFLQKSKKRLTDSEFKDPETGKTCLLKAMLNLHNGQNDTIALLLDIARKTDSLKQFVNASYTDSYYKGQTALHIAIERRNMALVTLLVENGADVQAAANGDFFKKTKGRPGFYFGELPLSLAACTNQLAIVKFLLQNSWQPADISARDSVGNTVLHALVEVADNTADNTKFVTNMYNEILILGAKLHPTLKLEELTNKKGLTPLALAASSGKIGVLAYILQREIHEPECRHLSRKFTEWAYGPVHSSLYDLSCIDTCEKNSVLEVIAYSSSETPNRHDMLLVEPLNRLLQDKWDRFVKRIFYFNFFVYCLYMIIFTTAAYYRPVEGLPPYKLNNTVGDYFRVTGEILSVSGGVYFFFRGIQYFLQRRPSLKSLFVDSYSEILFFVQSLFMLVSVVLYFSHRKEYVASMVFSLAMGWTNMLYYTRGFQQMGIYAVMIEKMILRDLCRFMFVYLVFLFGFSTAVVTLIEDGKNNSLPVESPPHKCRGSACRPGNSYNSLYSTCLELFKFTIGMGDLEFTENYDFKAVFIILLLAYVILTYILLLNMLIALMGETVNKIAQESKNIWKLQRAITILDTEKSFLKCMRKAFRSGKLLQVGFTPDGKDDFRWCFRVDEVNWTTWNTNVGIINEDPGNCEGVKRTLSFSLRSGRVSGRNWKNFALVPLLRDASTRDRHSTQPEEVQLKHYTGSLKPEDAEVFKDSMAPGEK
# Experiments:
# DRG neurons of WT mice = format: cell-based, mouse; conditions: 300 µM; DRG neurons 20 µm ≤ cell ≤ 35 µm; 20 °C
# [1] = system: DRG neurons of TRPV1 KO mice; format: cell-based, mouse; conditions: 300 µM; DRG neurons 20 µm ≤ cell ≤ 35 µm; 20 °C
# mTRPV1 = molecular target: T1, mTRPV1 (Mus musculus, UniProt Q704Y3); assay: cell-based
# T1 construct: expressed in transfected cells; host or cells: HEK293T
# native HEK293T cells = format: cell-based; conditions: negative for TRPV1, 20 °C, endogenous ASICs
structure (smiles),measurement,setting,value
CC(C)[C@@H]1NC(=O)[C@@H]2CSSC[C@@H]3NC(=O)[C@H](CC(=O)O)NC(=O)[C@H](CCC(=O)O)NC(=O)[C@@H](NC(=O)[C@@H](NC(=O)[C@H](C)N)[C@@H](C)O)CSSC[C@H](NC(=O)[C@H](CCCCN)NC(=O)[C@H](C)NC(=O)[C@H](CCCNC(=N)N)NC(=O)[C@H](C)NC(=O)[C@H](CC(N)=O)NC(=O)[C@H](CCC(N)=O)NC(=O)[C@H]([C@@H](C)O)NC(=O)[C@H](C)NC(=O)[C@H](CSSC[C@@H](C(=O)N[C@@H](CCC(=O)O)C(=O)N4CCC[C@H]4C(=O)N[C@@H](CCCCN)C(=O)O)NC1=O)NC(=O)[C@H](Cc1c[nH]cn1)NC(=O)[C@H](CCC(=O)O)NC(=O)[C@@H]1CCCN1C3=O)C(=O)N[C@@H](CC(=O)O)C(=O)N[C@@H](CC(N)=O)C(=O)N[C@@H](CC(=O)O)C(=O)N[C@@H](CCCCN)C(=O)N2 [BmP01],evoked currents on DRG neurons (WT),DRG neurons of WT mice,evoked currents in WT dorsal root ganglion (DRG) neurons; also recorded: effectively evoked the currents in DRG neurons of WT; also recorded: evoked the currents on DRG sensory neurons of WT mice
same,evoked currents on DRG neurons (TRPV1 KO),[1],had no effect on DRG neurons of TRPV1 KO mice; also recorded: not TRPV1 KO mice; also recorded: did not evoke currents
same,EC50,mTRPV1,132 ± 49.1 µM
same,"evoked currents in native HEK293T cells, ramp method",native HEK293T cells,not on HEK293T cells without TRPV1; also recorded: did not evoke the currents

# Entries after “also recorded” stand apart in the source; their conditions may differ.
